{"source": "patent US20230124013A1", "about": "“USE OF CONJUGATES COMPRISING TUMOUR-SELECTIVE LIGANDS AND GROUPS CAPABLE OF RELEASING CARBON MONOXIDE (CO), FOR EXERTING IMMUNOMODULATORY EFFECTS IN CANCER TREATMENT” (Instituto de Medicina Molecular João Lobo Antunes, priority 2020, published 2023)", "system": "bone marrow-derived macrophages", "experiment": "Bone marrow-derived macrophage (BMDM) differentiation culture", "assay_type": "cell-based, C57BL/c mice", "conditions": "BMDM in vitro, day 2 and 6 of differentiation", "data": [{"substance": "rHSA-CORM: artificial albumin metalloprotein: recombinant human serum albumin (Recombumin) metalated with CORM-3, carrying Ru(CO)2 groups", "values": [{"measurement": "apoptosis (Annexin V and Viability dye)", "result": "reduction in apoptosis"}]}]}
